Experimental data published in patent US4548925A, “Antibiotic M43A, pharmaceutical composition and method of use” (Eli Lilly and Company, priority 1984, dated 1985).

Test system: Staphylococcus aureus S13E
Conditions: agar dilution, M43A phosphate salt, vancomycin free base

CN[C@H](CC(C)C)C(=O)N[C@H]1C(=O)N[C@@H](CC(N)=O)C(=O)N[C@H]2C(=O)N[C@H]3C(=O)N[C@H](C(=O)N[C@H](C(=O)O)c4cc(O)cc(O)c4-c4cc3ccc4O)[C@H](O)c3ccc(c(Cl)c3)Oc3cc2cc(c3O[C@@H]2O[C@H](CO)[C@@H](O)[C@H](O)[C@H]2O[C@H]2C[C@](C)(N)[C@H](O)[C@H](C)O2)Oc2ccc(cc2Cl)[C@H]1O [Vancomycin]
MIC: 1 µg/mL
